Tested on: H1N1 A/Puerto Rico/8/34-NS116-GFP
Assay: Antiviral effect against GFP reporter virus on A549 cells

Row | SMILES | SI higher than other single pseudotannins or tannic acid | Difference of EC50 to gallic acid when expressed in µg/ml [fold] | More active than gallic acid on a molar basis (EC50 in µM) [fold]
1 | O=C(O[C@@H]1Cc2c(O)cc(O)cc2O[C@@H]1c1cc(O)c(O)c(O)c1)c1cc(O)c(O)c(O)c1 [EGCG, (−)-epigallocatechin gallate] | 2- to 6 fold | – | –
2 | O=C(OC[C@H]1O[C@@H](OC(=O)c2cc(O)c(O)c(OC(=O)c3cc(O)c(O)c(O)c3)c2)[C@H](OC(=O)c2cc(O)c(O)c(OC(=O)c3cc(O)c(O)c(O)c3)c2)[C@@H](OC(=O)c2cc(O)c(O)c(OC(=O)c3cc(O)c(O)c(O)c3)c2)[C@@H]1OC(=O)c1cc(O)c(O)c(OC(=O)c2cc(O)c(O)c(O)c2)c1)c1cc(O)c(O)c(OC(=O)c2cc(O)c(O)c(O)c2)c1 [Tannic acid, tannic acid] | – | 1.3 | ~12

From paper PMC3909258, “Tannins from Hamamelis virginiana Bark Extract: Characterization and Improvement of the Antiviral Efficacy against Influenza A Virus and Human Papillomavirus” (PLoS ONE, 2014)
